Source: PMC8206564, “Discovery of New Potent anti-MERS CoV Fusion Inhibitors” (2021)

Tested on: Vero cells
Assay: Cytotoxicity assay, CCK-8
Conditions: at or below 10 µM, 3 days, concentrations up to 50 µM

Compound | Cytotoxicity in Vero cells
CC[C@H](C)[C@H](NC(=O)[C@H](Cc1ccc(O)cc1)NC(=O)[C@H](Cc1ccc(O)cc1)NC(=O)[C@H](CCC(=O)O)NC(=O)[C@H](CC(N)=O)NC(=O)[C@H](CC(C)C)NC(=O)[C@H](C)NC(=O)[C@H](CCCCN)NC(=O)[C@@H](NC(=O)[C@@H](NC(=O)[C@H](CCC(N)=O)NC(=O)[C@H](CCC(N)=O)NC(=O)[C@H](CC(C)C)NC(=O)[C@H](CO)NC(=O)[C@H](CCC(=O)O)NC(=O)[C@H](CCSC)NC(=O)[C@H](CCC(=O)O)NC(=O)[C@H](Cc1ccc(O)cc1)NC(=O)[C@@H](NC(=O)[C@H](CC(C)C)NC(=O)[C@H](CC(=O)O)NC(=O)[C@H](CC(C)C)NC(=O)[C@H](CC(C)C)NC(=O)[C@@H](NC(=O)[C@H](Cc1c[nH]c2ccccc12)NC(=O)[C@H](CC(N)=O)NC(=O)[C@@H](NC(=O)[C@H](CCC(N)=O)NC(=O)[C@@H](NC(=O)[C@H](CC(C)C)NC(=O)[C@@H](N)CO)[C@@H](C)O)[C@@H](C)CC)[C@@H](C)O)[C@@H](C)O)C(C)C)C(C)C)C(=O)N[C@@H](CC(=O)O)C(=O)N[C@@H](CC(C)C)C(=O)N[C@@H](CCCCN)C(=O)N[C@@H](CCC(=O)O)C(=O)N[C@@H](CC(C)C)C(=O)O | No cytotoxicity
CC[C@H](C)[C@H](NC(=O)[C@H](Cc1ccc(O)cc1)NC(=O)[C@H](Cc1ccc(O)cc1)NC(=O)[C@H](CCC(=O)O)NC(=O)[C@H](CC(N)=O)NC(=O)[C@H](CC(C)C)NC(=O)[C@H](C)NC(=O)[C@H](CCCCN)NC(=O)[C@@H](NC(=O)[C@@H](NC(=O)[C@H](CCC(N)=O)NC(=O)[C@H](CCC(N)=O)NC(=O)[C@H](CC(C)C)NC(=O)[C@H](CO)NC(=O)[C@H](CCC(=O)O)NC(=O)[C@H](CCSC)NC(=O)[C@H](CCC(=O)O)NC(=O)[C@H](Cc1ccc(O)cc1)NC(=O)[C@@H](NC(=O)[C@H](CC(C)C)NC(=O)[C@H](CC(=O)O)NC(=O)[C@H](CC(C)C)NC(=O)[C@H](CC(C)C)NC(=O)[C@@H](NC(=O)[C@H](Cc1c[nH]c2ccccc12)NC(=O)[C@H](CC(N)=O)NC(=O)[C@@H](NC(=O)[C@H](CCC(N)=O)NC(=O)[C@@H](NC(=O)[C@H](CC(C)C)NC(=O)[C@@H](N)CO)[C@@H](C)O)[C@@H](C)CC)[C@@H](C)O)[C@@H](C)O)C(C)C)C(C)C)C(=O)N[C@@H](CC(=O)O)C(=O)N[C@@H](CC(C)C)C(=O)N[C@@H](CCCCN)C(=O)N[C@@H](Cc1c[nH]cn1)C(=O)N[C@@H](CC(C)C)C(=O)O | No cytotoxicity
